Results of unrelated studies side by side (data: NIAID ChemDB).

All rows: toxicity to cultured cells; cell line: PBL; endpoint: CC50

CCn: concentration that lowers growth or viability of the cells by n%. Conditions beyond the fields shown may differ between rows.

compound | result
Nc1ncnc2c1ncn2[C@H]1CC[C@@H](CO)O1 | 24 µM
O=c1[nH]cnc2c1ncn2[C@H]1CC[C@@H](CO)O1 | 2230 µM
C1CNCCNCCCN[C@H]([C@@H]2CNCCCNCCNCCCN2)CNC1 | >724 µM
CCOCn1c(Sc2cc(C)cc(C)c2)c(CC)c(=O)[nH]c1=O | 56 µM
C[C@H](Cn1cnc2c(N)nc(N)nc21)OCP(=O)(O)O | >300 µM
CC(C)C[C@H](NC(=O)[C@H](Cc1ccccc1)NC(=O)CNC(=O)CNC(=O)[C@@H](N)Cc1ccc(O[C@@H]2O[C@H](CO)[C@@H](O)[C@H](O)[C@H]2O)cc1)C(=O)O | >140 µM
O=c1c2ccccc2n2nnc3ccc(NCCCN4CCN(CCCNc5ccc6nnn7c8ccccc8c(=O)c5c67)CC4)c1c32 | >1.5 µM
C=C(C)OC(=O)N1c2cc(Cl)ccc2NC(=S)C1(C)C | 25 µM
CC(C)C[C@H](NC(=O)[C@H](Cc1ccccc1)NC(=O)CNC(=O)CNC(=O)[C@@H](N)Cc1ccc(O)cc1)C(=O)OC[C@@H](O)[C@@H](O)[C@H](O)[C@@H](O)C=O | >140 µM
Cc1c(N)nc([C@H](CC(N)=O)NC[C@H](N)C(N)=O)nc1C(=O)N[C@H](C(=O)N[C@H](C)[C@@H](O)[C@H](C)C(=O)N[C@H](C(=O)NCCc1nc(-c2nc(C(=O)NCCC[S+](C)C)cs2)cs1)[C@@H](C)O)C(O[C@@H]1O[C@@H](CO)[C@@H](O)[C@H](O)[C@@H]1O[C@H]1O[C@H](CO)[C@@H](O)[C@H](OC(N)=O)[C@@H]1O)c1cnc[nH]1 | >300 µM
CCN(CC)CCCC(C)Nc1ccnc2cc(Cl)ccc12 | 60 µM
CC12CCC3C(CCC4CCCCC43C)C1CC(F)C2=O | >100 µM
C#Cc1c(C(N)=O)ncn1[C@@H]1O[C@H](CO)[C@@H](O)[C@H]1O | 1.35 µM
CCc1cc(NCc2nc3c(C)ccc(C)c3o2)c(=O)[nH]c1C | >60 µM
Nc1nc(N)c2ncn(CC(CF)OCP(=O)(O)O)c2n1 | >500 µM
Nc1ccn([C@H]2CC[C@@H](CO)O2)c(=O)n1 | 11 µM
Nc1ncnc2c1ncn2CCOCP(=O)(O)O | 50 µM
Nc1ncnc2c1ncn2[C@H]1C=C[C@@H](CO)O1 | 14 µM
CC(=O)N(O)CCCCCNC(=O)CCC(=O)N(O)CCCCCNC(=O)CCC(=O)N(O)CCCCCN | <100 µM
CC(C)C[C@H](NC(=O)[C@H](Cc1ccccc1)NC(=O)CNC(=O)CNC(=O)[C@@H](N)Cc1ccc(O)cc1)C(=O)NC[C@H]1OC(O)[C@H](O)[C@@H](O)[C@@H]1O | >140 µM
CCOCn1c(Cc2cc(C)cc(C)c2)c(CC)c(=O)[nH]c1=O | 73 µM